This passage reports Km results from ChEMBL document CHEMBL1145474, “Selective phosphorylation of antiviral drugs by vaccinia virus thymidine kinase” (Antimicrob Agents Chemother, 2007).

Some results are limits rather than exact numbers.

For the test, the species on record is Homo sapiens.

For the molecule `N#CC1=C(N)OC2=C(C(=O)CCC2)C1c1cn([C@H]2C[C@H](O)[C@@H](CO)O2)c(=O)[nH]c1=O` (some centres not stated), the Km was above 200 µM.
Next, `Nc1ccn(C[C@@H](CO)OCP(=O)(O)O)c(=O)n1`: above 159 µM.

The term Km denotes the substrate concentration at which the rate is half of its maximum.
